A mixed list of measured activities; the numbers were collected in NIAID ChemDB.

Common to all: growth or infection tests; organism: Herpes simplex virus 1

Percent inhibition refers to the dose given; in toxicity tests it is the harm to the cells. ECn is the concentration giving n% inhibition of infection, replication or growth. Conditions beyond the fields shown may differ between rows. An empty or dashed field is not shown.

compound | read by | cell line | measure | strain or isolate | dose | value
Nc1nc2c(ncn2COCCOP(=O)(O)C(=O)O)c(=O)[nH]1 | cytopathic effect | VERO | EC95 | AVD | - | 286 µM
Nc1ncnc2c1ncn2C[C@@H](CO)OCP(=O)(O)O | cytopathic effect | HEL | EC50 | KOS PMEDAP-resistant | - | 0.06 µg/mL
O=c1[nH]c(=O)n([C@H]2C[C@H](O)[C@@H](CO)O2)cc1I | cytopathic effect | VERO | inhibition | BRAND | 0.3 µM | >25%
Nc1ncnc2c1ncn2CCOCP(=O)(O)O | cytopathic effect | HEL | EC50 | KOS HPMPA-resistant | - | 9.9 µg/mL
O=C(O)P(=O)(O)O | plaque count | SIRC | inhibition | KJ502 | 100 µM | 92%
N[C@@H]1[C@@H](O)[C@H](O)[C@@H](CO)O[C@H]1O | cytopathic effect | HeLa | EC50 | KOS | - | >20000 µM
O=C(CP(=O)(O)O)OC[C@H]1O[C@@H](n2cc(CCCl)c(=O)[nH]c2=O)C[C@@H]1O | cytopathic effect | VERO | inhibition | TK- | 72.7 µM | >25%
Nc1ncc2c(ncn2COC(CO)CO)n1 | cytopathic effect | HEL | EC50 | KOS PMEA-resistant | - | 0.54 µg/mL
C[C@H]1O[C@@H](n2ccc(NC(=O)c3ccc(NC(=O)[C@@](C)(N)CO)cc3)nc2=O)C[C@@H](O)[C@@H]1O[C@H]1O[C@H](C)[C@@H](N(C)C)[C@H](O)[C@H]1O | cytopathic effect | HeLa | EC50 | KOS | - | >500 µg/mL
Nc1nc(=O)n([C@@H]2O[C@H](CO)[C@@H](O)[C@@H]2F)cc1I | cytopathic effect | HEL | EC50 | KOS ACV-resistant | - | 6.8 µg/mL
CCOC(=O)P(=O)(O)O[C@H]1C[C@H](n2cc(CCCl)c(=O)[nH]c2=O)O[C@@H]1CO | cytopathic effect | VERO | inhibition | BRAND | 234 µM | >25%
Nc1nc2c(ncn2CCC(CO)CO)c(=O)[nH]1 | cytopathic effect | HEL | EC50 | KOS PFA-resistant | - | 0.11 µg/mL
CC1=C(/C=C/C(C)=C/C=C/C(C)=C/C=O)C(C)(C)CCC1 | cytopathic effect | HeLa | EC50 | KOS | - | >200 µg/mL
COP(=O)(CC(=O)O[C@H]1C[C@H](n2cc(CCCl)c(=O)[nH]c2=O)O[C@@H]1CO)OC | cytopathic effect | VERO | inhibition | TK- | 227 µM | >25%
N[C@@H](CCC(=O)O)C(=O)N[C@@H](CCC(=O)O)C(=O)N[C@@H](CCC(=O)O)C(=O)O | cytopathic effect | HeLa | EC50 | KOS | - | >200 µg/mL
Nc1nc2c(ncn2COCCO)c(=O)[nH]1 | cytopathic effect | VERO | inhibition | TK- | 44 µM | >25%

The last 2 rows once more:

{"compound": "N[C@@H](CCC(=O)O)C(=O)N[C@@H](CCC(=O)O)C(=O)N[C@@H](CCC(=O)O)C(=O)O", "read by": "cytopathic effect", "cell line": "HeLa", "measure": "EC50", "strain or isolate": "KOS", "value": ">200 µg/mL"}
{"compound": "Nc1nc2c(ncn2COCCO)c(=O)[nH]1", "read by": "cytopathic effect", "cell line": "VERO", "measure": "inhibition", "strain or isolate": "TK-", "dose": "44 µM", "value": ">25%"}